One may read the IC50 as the point on the concentration scale where inhibition reaches its midpoint. A higher IC50 goes with a need for much substance.

The test system of experiment [1] is PA endonuclease domain (residues 1-200). Conditions: from PA sequence: absence of E23G/K, I38T/F/M/S/L/N, E119D substitutions.
Experiment [2] addresses A/bottlenose dolphin/Florida/UFTt2203/2022 (H5N1) NA-S246N (Influenza A virus, UniProt Q9Q0U7, S247N).

For the molecule `COC(=O)OCOc1c2n(ccc1=O)N([C@@H]1c3ccccc3SCc3c1ccc(F)c3F)[C@@H]1COCCN1C2=O`, in experiment [1], the “Susceptibility to PA protein inhibitor, in words” value is “susceptible”.

`CCC(CC)O[C@@H]1C=C(C(=O)O)C[C@H](N)[C@H]1NC(C)=O` [oseltamivir, oseltamivir carboxylate]: the IC50 in experiment [2] (dolphin H5N1 virus with NA-S246N, MUNANA substrate, four dose-response curves) was 7.51 nM. Also, in experiment [2] (fold over A/Denmark/524/2009 (H1N1)pdm09, virus with S246N neuraminidase substitution), the “NAI susceptibility classification (WHO guidance)” value was “reduced inhibition (10–100 fold, reduced inhibition)”. Further, in experiment [2] (in vitro, dolphin H5N1 virus containing NA-S246N), the “Susceptibility of the virus to the NAI, in words” value is on record as “reduced susceptibility”.
